The text below walks through data of patent publication US20080020981A1, “Non-nucleoside reverse transcriptase inhibitors” (Roche Palo Alto LLC, priority 2006, published 2008).

SMILES strings stand for the structures.

The test addresses HIV-RT enzyme (HIV-1 reverse transcriptase) (Human immunodeficiency virus type 1 group M subtype B, UniProt P03366). As to the kind of experiment: HIV-1 Reverse Transcriptase Assay Inhibitor IC50 Determination (RNA-dependent DNA polymerase activity, SPA). The settings on record: read-out: HIV-RT IC50, 30 min at 30°.

Consider `Cc1cc(S(N)(=O)=O)ccc1NC(=O)COc1ccc(Br)c(Oc2cc(C#N)cc(C#N)c2)c1F`, for which the IC50 – broadly, the concentration needed to halve the response being measured – was 19.1 nM.

As to `Cc1cc(S(N)(=O)=O)ccc1NC(=O)COc1ccc(Cl)c(Oc2cc(C#N)cc(C3CC3)c2)c1F`, the IC50 was 18.4 nM.
